B1: Phosphatidylinositide phosphatase SAC2 (protein, UniProt Q8CDA1 1-1132, looked up)
Phosphatidylinositide …: MELFQAKDHYILQQGERALWCSRRDGGLQLRPATDLLLAWNPICLGLVEGVIGKIQLHSDLPWWLILIRQKALVGKLPGDHEVCKVTKIAVLSLSEMEPQELELELCKKHHFGINKPEKIIPSPDDSKFLLKTFTNIKSNVSAPNKKKVKESKEKEKLERRLLEELLKMFMDSESFYYSLTYDLTNSVQRQSTGERDGRPLWQKVDDRFFWNKYMIQALTEIGTPDVDFWIIPIIQGFVQIEELVVNYNESSDDDKSSPETPPQDSTCVDDIHPRFLVALISRRSRHRAGMRYKRRGVDKNGNVANYVETEQLIHVHHHTLSFIQTRGSVPVFWSQVGYRYNPRPRLDKSEKETVDCFCAHFEEQLKIYKKQVIVNLVDQAGREKIIGDAYLKQVLLFNNPKLTYVSFDFHEHCRGMKFENVQTLTDAIHDIIIDMKWCWVDQAGVICKQEGIFRVNCMDCLDRTNVVQAAIARVVMEQQLKKLGVMPPEQPLPVKCNRTYQIMWANNGDSISRQYAGTAALKGDFTRTGERKLAGVMKDGVNSANRYYLSRFKDAYRQAVIDLMQGVPVTEDLYSIFTKEKEHEALHKESQRSHQELISQLLQSYMQLLLPGDEKFHGGWALVDCDPSLTDAAHRDVEVLLLLSNAAYYVAYYDDEVDKVNQYQRLGLEDLERIEIGPEPTLFGKPKFSCMRLHYRCKEAGGYFHTLRAVPRSPEEDGKDTLQCIAEMLQITKQAMGLDVPIIEKKLERKSSKPHEDIIGIRSQNQGSLAQGKSFLMSKFSSLNQKVKQTKSNVNIGNLRKLGNFTKPEMKVNFLKPNLKVNLWKSDSSLETMENPGVMGNKVQGESDGDISSDNDSYHSDEFLTNSKSEEDKQLANSLESVGPIDYILPSCGIIVSAPRLGSRSQSASSIDVSTHAPSEAAAGPGSELGKGLESPLKKSPSADSIHTRTGFTKPMDVYCQRFVQDAQNKMNDLSEIRSVAQKSEEGSHKTNRVSNEETQSEPMGQTPPRPSQLNVSCSVAGPPFLSVEPVHSVLSQKTPSSGSSLLELEAGLCVTPSSESSSSRAVSPFAKIRSSMVQVANITQAGLTHGINLAVAKVQKSPAEPEAVNEIQQNELKNMFTQCQTRIIQI
B2: Phospholipid transfer protein (protein, UniProt P55065 18-493, looked up)
Phospholipid transfer protein: ELPGCKIRVTSAALDLVKQEGLRFLEQELETITIPDVYGAKGHFYYNISDVRVTQLHLISSELHFQPDQDLLLNISNASLGLHFRRQLLYWFLYDGGYINASAEGVSIRTGLQLSQDSSGRIKVSNVSCEASVSKMNMAFGGTFRRMYNFFSTFITSGMRFLLNQQICPVLYHAGTVLLNSLLDTVPVRSSVDDLVGIDYSLLKDPVVSNGNLDMEFRGAFFPLKEDNWSLPNRAVEPQLEDDERMVYVAFSEFFFDSAMESYFQAGALQLTLVGDKVPSDLDMLLRATYFGSIVLLSPTVINSPLKLKLEATSPPRCTIKPSGTTISITASVTITLAPPMLPEVELSKMIMEGRLSAKLTLRGKALRVKLDLRRFQIYSNQSALESLALIPLQAPLKTLLQIGVMPLLNERTWRGVQIPLPEGINFVREVVTNHAGFVTVGADLHFAKGLREVIDKNRPADVAASHVPPPSAAAA
B3: Protein disulfide-isomerase A3 (protein, UniProt P27773 25-505, looked up)
Protein disulfide-isomerase A3: SDVLELTDENFESRVSDTGSAGLMLVEFFAPWCGHCKRLAPEYEAAATRLKGIVPLAKVDCTANTNTCNKYGVSGYPTLKIFRDGEEAGAYDGPRTADGIVSHLKKQAGPASVPLRTEEEFKKFISDKDASVVGFFRDLFSDGHSEFLKAASNLRDNYRFAHTNIESLVKEYDDNGEGITIFRPLHLANKFEDKTVAYTEKKMTSGKIKKFIQDSIFGLCPHMTEDNKDLIQGKDLLTAYYDVDYEKNAKGSNYWRNRVMMVAKKFLDAGHKLNFAVASRKTFSHELSDFGLESTTGEVPVVAIRTAKGEKFVMQEEFSRDGKALEQFLQEYFDGNLKRYLKSEPIPESNEGPVKVVVAENFDDIVNEEDKDVLIEFYAPWCGHCKNLEPKYKELGEKLSKDPNIVIAKMDATANDVPSPYEVKGFPTIYFSPANKKLTPKKYEGGRELNDFISYLQREATNPPIIQEEKPKKKKKAQEDL
B4: Neurofilament heavy polypeptide (protein, UniProt P19246 1-1090, looked up)
Neurofilament heavy …: MMSFGSADALLGAPFAPLHGGGSLHYSLSRKAGPGGTRSAAGSSSGFHSWARTSVSSVSASPSRFRGAASSTDSLDTLSNGPEGCVVAAVAARSEKEQLQALNDRFAGYIDKVRQLEAHNRSLEGEAAALRQQQAGRAAMGELYEREVREMRGAVLRLGAARGQLRLEQEHLLEDIAHVRQRLDEEARQREEAEAAARALARFAQEAEAARVELQKKAQALQEECGYLRRHHQEEVGELLGQIQGCGAAQAQAQAEARDALKCDVTSALREIRAQLEGHAVQSTLQSEEWFRVRLDRLSEAAKVNTDAMRSAQEEITEYRRQLQARTTELEALKSTKESLERQRSELEDRHQADIASYQDAIQQLDSELRNTKWEMAAQLREYQDLLNVKMALDIEIAAYRKLLEGEECRIGFGPSPFSLTEGLPKIPSISTHIKVKSEEMIKVVEKSEKETVIVEGQTEEIRVTEGVTEEEDKEAQGQEGEEAEEGEEKEEEEGAAATSPPAEEAASPEKETKSRVKEEAKSPGEAKSPGEAKSPAEAKSPGEAKSPGEAKSPGEAKSPAEPKSPAEPKSPAEAKSPAEPKSPATVKSPGEAKSPSEAKSPAEAKSPAEAKSPAEAKSPAEAKSPAEAKSPAEAKSPATVKSPGEAKSPSEAKSPAEAKSPAEAKSPAEAKSPAEVKSPGEAKSPAEPKSPAEAKSPAEVKSPAEAKSPAEVKSPGEAKSPAAVKSPAEAKSPAAVKSPGEAKSPGEAKSPAEAKSPAEAKSPIEVKSPEKAKTPVKEGAKSPAEAKSPEKAKSPVKEDIKPPAEAKSPEKAKSPVKEGAKPPEKAKPLDVKSPEAQTPVQEEAKHPTDIRPPEQVKSPAKEKAKSPEKEEAKTSEKVAPKKEEVKSPVKEEVKAKEPPKKVEEEKTLPTPKTEAKESKKDEAPKEAPKPKVEEKKETPTEKPKDSTAEAKKEEAGEKKKAVASEEETPAKLGVKEEAKPKEKTETTKTEAEDTKAKEPSKPTETEKPKKEEMPAAPEKKDTKEEKTTESRKPEEKPKMEAKVKEDDKSLSKEPSKPKTEKAEKSSSTDQKESQPPEKTTEDKATKGEK
B5: Monocarboxylate transporter 1 (protein, UniProt P53986 1-493, looked up)
Monocarboxylate transporter 1: MPPAIGGPVGYTPPDGGWGWAVLVGAFISIGFSYAFPKSITVFFKEIEVIFSATTSEVSWISSIMLAVMYAGGPISSILVNKYGSRPVMIAGGCLSGCGLIAASFCNTVQELYLCIGVIGGLGLAFNLNPALTMIGKYFYKKRPLANGLAMAGSPVFLSTLAPLNQAFFDIFDWRGSFLILGGLLLNCCVAGSLMRPIGPEQVKLEKLKSKESLQEAGKSDANTDLIGGSPKGEKLSVFQTINKFLDLSLFTHRGFLLYLSGNVVMFFGLFTPLVFLSSYGKSKDFSSEKSAFLLSILAFVDMVARPSMGLAANTKWIRPRIQYFFAASVVANGVCHLLAPLSTTYVGFCVYAGVFGFAFGWLSSVLFETLMDLIGPQRFSSAVGLVTIVECCPVLLGPPLLGRLNDMYGDYKYTYWACGVILIIAGIYLFIGMGINYRLLAKEQKAEEKQKREGKEDEASTDVDEKPKETMKAAQSPQQHSSGDPTEEESPV
B6: Alpha-1-antitrypsin 1-2 (protein, UniProt P22599 25-413, looked up)
Alpha-1-antitrypsin 1-2: EDVQETDTSQKDQSPASHEIATNLGDFAISLYRELVHQSNTSNIFFSPVSIATAFAMLSLGSKGDTHTQILEGLQFNLTQTSEADIHKSFQHLLQTLNRPDSELQLSTGNGLFVNNDLKLVEKFLEEAKNHYQAEVFSVNFAESEEAKKVINDFVEKGTQGKIVEAVKELDQDTVFALANYILFKGKWKKPFDPENTEEAEFHVDKSTTVKVPMMMLSGMLDVHHCSILSSWVLLMDYAGNASAVFLLPEDGKMQHLEQTLNKELISKILLNRRRRLVQIHIPRLSISGDYNLKTLMSPLGITRIFNNGADLSGITEENAPLKLSKAVHKAVLTIDETGTEAAAATVFEAVPMSMPPILRFDHPFLFIIFEEHTQSPIFVGKVVDPTHK
B7: Serine protease inhibitor A3G (protein, UniProt Q5I2A0 1-440, looked up)
Serine protease inhibitor A3G: MAGVSPAVFGCPDVTLGRNTAVREVQENVTSVDSLTLVSSNTDFAFSLYRKLVLKNPDENVVFSPFSICTALALLSLGAKSNTLKEILEGLKFNLTETPEPDIHQGFRYLLDLLSQPGNQVQISTGSALFIEKHLQILAEFKEKARALYQAEAFTADFQQPLKATKLINDYVSNHTQGKIKELISGLKESTLMVLVNYIYFKGKWKNPFDPNDTFKSEFYLDEKRSVIVSMMKTGYLTTPYFRDEELSCTVVELKYTGNASAMFILPDQGRMQQVEASLQPETLRKWKNSLKPRMIHELRLPKFSISTDYSLEHILPELGIREVFSTQADLSAITGTKDLRVSQVVHKAVLDVAETGTEAAAATGMAGVGCCAVFDFLEIFFNRPFLMIISDTKAHIALFMAKVTNPERSMNFPNGEGASSQRLESKRLCFGDPLCLIGQ
B8: Ras-related protein Rab-19 (protein, UniProt P35294 1-217, looked up)
Ras-related protein Rab-19: MQFSSSSRTSDENVDYLFKVILIGDSNVGKTCVVQHFKSGVYSESQQNTIGVDFTVRSLEIDGKKVKMQVWDTAGQERFRTITQSYYRSAHAAIIAYDLTRRSTFESVPHWIHEIEKYGAANLVIMLIGNKSDLWEKRHVLFEDACTLAEKHGLLAVLETSAKESRNIDEVFVLMAKELIARNSLHLYGESAQQGLSQDSSPVLVAQVPNESTRCTC

In one data set the test system is coronal proteins on NPs. More on the design: species or system mouse. Particulars: HBPE-NPs incubated 1 h with IAV day 5 (V5) mouse sera, 20:1 NP:sera, centrifuged and washed.
Turning to B1, the “V5 Sera_Nanoparticles Quantitative Value (Normalized Total Spectra)” value came out at 1.0879.
Consider B2, for which the “V5 Sera_Nanoparticles Quantitative Value (Normalized Total Spectra)” value was determined as 0.
On to B3, for which the “V5 Sera_Nanoparticles Quantitative Value (Normalized Total Spectra)” value came to 1.0879.
Consider B4, for which the “V5 Sera_Nanoparticles Quantitative Value (Normalized Total Spectra)” value is recorded as 0.
As to B5, the “V5 Sera_Nanoparticles Quantitative Value (Normalized Total Spectra)” value is 1.0879.
For B6, the “V5 Sera_Nanoparticles Quantitative Value (Normalized Total Spectra)” value came out at 35.901.
As to B7, the “V5 Sera_Nanoparticles Quantitative Value (Normalized Total Spectra)” value amounted to 0.
B8: the “V5 Sera_Nanoparticles Quantitative Value (Normalized Total Spectra)” value was 1.0879.

Still in this data set, the particulars now being: IAV day 5 (V5) mouse sera alone, no NPs (sera-only control).
Take B1: the “V5 Sera Alone (Control) Quantitative Value (Normalized Total Spectra)” value (from here on “V5 Sera Alone … (Normalized Total Spectra)”) is 0.
Take B2: the “V5 Sera Alone … (Normalized Total Spectra)” value is reported as 9.2523.
For B3, the “V5 Sera Alone … (Normalized Total Spectra)” value is on record as 0.
Turning to B4, the “V5 Sera Alone … (Normalized Total Spectra)” value is listed as 0.9252.
For B5, the “V5 Sera Alone … (Normalized Total Spectra)” value stood at 0.
Take B6: the “V5 Sera Alone … (Normalized Total Spectra)” value is recorded as 58.289.
Same read-out and setting: for B7 the value was 18.505; for B8, 0.
